From paper PMC9093745, “Carbohydrate Metabolism in Bacteria: Alternative Specificities in ADP-Glucose Pyrophosphorylases Open Novel Metabolic Scenarios and Biotechnological Tools” (Frontiers in Microbiology, 2022) come the findings set out here.

In series [1] the test system is O=P(O)(O)O[C@H]1O[C@H](CO)[C@@H](O)[C@H](O)[C@H]1O. In words: purified protein. The note with it: ATP co-substrate, Mg2+, pH 8.0, 37°C, no effector.
Series [2] concerns N[C@H]1[C@@H](OP(=O)(O)O)O[C@H](CO)[C@@H](O)[C@@H]1O. In words: purified protein. The conditions noted are these: ATP co-substrate, Mg2+, pH 8.0, 37°C, no effector.

What is called Km is the substrate concentration at which the rate is half of its maximum. What is called Vmax is the top rate of the reaction or transport when substrate is in excess.

As for “A. tumefaciens ADP-Glc PPase (Agrobacterium tumefaciens; E187A)”, in series [1], the Michaelis constant (Km) was 0.427 ± 0.049 mM, the Vmax is 0.27 µmol/min/mg and the Vmax/Km was 632 µL/min/mg. In series [2], the Km came to 1.50 ± 0.23 mM, the Vmax came out at 0.012 µmol/min/mg and the Vmax/Km was found to be 8 µL/min/mg.
